{"source": "PubChem BioAssay AID1259414 (Drosophila RNAi Screening Center, 2018)", "purpose": "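Host factors increasing or decreasing Wolbachia levels in cultured fly cells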 (primary screen)", "system": "Drosophila JW18 cells infected with Wolbachia", "knock-down reagent": "long dsRNA against Drosophila genes, 0.25 µg dsRNA per well of a 384-well plate", "time to read-out": "5 days", "treatment": "cells persistently infected with Wolbachia before knock-down; no added drug", "measurement": "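Imaged fluorescence in situ signal for Wolbachia 23S rRNA per DAPI-counted host cell, given as a robust z-score within each plate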", "reading the numbers": "Wolbachia per cell robust z: higher = more Wolbachia per host cell than the plate typical", "call rule": "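Active if absolute robust z reaches 1.5 in two or more of three replicates, leaving out multi- or no-target dsRNAs, genes unexpressed in JW18 and A1 wells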", "note": "In all, the deposit lists about 24,000 reagents; below is an unselected part of those with a known target gene and a result. Over the whole deposit, about 1,210 (5%) were called active. 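Inactive calls also include excluded dsRNAs with several or no targets, genes unexpressed in JW18, and well A1, regardless of score.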 Entries without a mark were called inactive. Reagents against one gene are numbered here. No sequences are given here."}
{"Gene":"Tango2 (Transport and Golgi organization 2)","reagent no.":1,"Wolbachia per cell robust z, rep 1":-0.269,"Wolbachia per cell robust z, rep 2":-6.22,"Wolbachia per cell robust z, rep 3":0.539}
{"Gene":"Tango2 (Transport and Golgi organization 2)","reagent no.":2,"Wolbachia per cell robust z, rep 1":-1.03,"Wolbachia per cell robust z, rep 2":-0.416,"Wolbachia per cell robust z, rep 3":-0.206}
{"Gene":"CG3246","reagent no.":1,"Wolbachia per cell robust z, rep 1":0.211,"Wolbachia per cell robust z, rep 2":0.787,"Wolbachia per cell robust z, rep 3":-0.0854}
{"Gene":"PQBP1 (Poly-glutamine tract binding protein 1)","reagent no.":1,"Wolbachia per cell robust z, rep 1":-0.204,"Wolbachia per cell robust z, rep 2":0.74,"Wolbachia per cell robust z, rep 3":0.0422}
{"Gene":"CG42288","reagent no.":1,"Wolbachia per cell robust z, rep 1":-0.319,"Wolbachia per cell robust z, rep 2":-0.566,"Wolbachia per cell robust z, rep 3":0.107}
{"Gene":"CG42288","reagent no.":2,"Wolbachia per cell robust z, rep 1":-0.816,"Wolbachia per cell robust z, rep 2":0.869,"Wolbachia per cell robust z, rep 3":-1.22}
{"Gene":"CG42288","reagent no.":3,"Wolbachia per cell robust z, rep 1":-0.606,"Wolbachia per cell robust z, rep 2":0.409,"Wolbachia per cell robust z, rep 3":0.405}
{"Gene":"CG8944","reagent no.":1,"Wolbachia per cell robust z, rep 1":0.526,"Wolbachia per cell robust z, rep 2":0.47,"Wolbachia per cell robust z, rep 3":0.576}
{"Gene":"CG8944","reagent no.":2,"Wolbachia per cell robust z, rep 1":0.137,"Wolbachia per cell robust z, rep 2":0.42,"Wolbachia per cell robust z, rep 3":0.902}
{"Gene":"CG8944","reagent no.":3,"Wolbachia per cell robust z, rep 1":0.483,"Wolbachia per cell robust z, rep 2":-0.512,"Wolbachia per cell robust z, rep 3":0.484}
{"Gene":"CG18581","reagent no.":1,"Wolbachia per cell robust z, rep 1":-0.77,"Wolbachia per cell robust z, rep 2":0.136,"Wolbachia per cell robust z, rep 3":1.03}
{"Gene":"Vha14-2 (Vacuolar H[+] ATPase 14kD subunit 2)","reagent no.":1,"Wolbachia per cell robust z, rep 1":0.291,"Wolbachia per cell robust z, rep 2":0.282,"Wolbachia per cell robust z, rep 3":-6.19}
{"Gene":"Spase22-23 (Spase 22/23-subunit)","reagent no.":1,"Wolbachia per cell robust z, rep 1":0.428,"Wolbachia per cell robust z, rep 2":-2.31,"Wolbachia per cell robust z, rep 3":0.252}
{"Gene":"LysX (Lysozyme X)","reagent no.":1,"Wolbachia per cell robust z, rep 1":0.461,"Wolbachia per cell robust z, rep 2":1.22,"Wolbachia per cell robust z, rep 3":0.478}
{"Gene":"CG15905","reagent no.":1,"Wolbachia per cell robust z, rep 1":0.0103,"Wolbachia per cell robust z, rep 2":-0.00302,"Wolbachia per cell robust z, rep 3":0.264}

Continued (3 carried over from the part before).
{"Gene":"Spase22-23 (Spase 22/23-subunit)","reagent no.":1,"Wolbachia per cell robust z, rep 1":0.428,"Wolbachia per cell robust z, rep 2":-2.31,"Wolbachia per cell robust z, rep 3":0.252}
{"Gene":"LysX (Lysozyme X)","reagent no.":1,"Wolbachia per cell robust z, rep 1":0.461,"Wolbachia per cell robust z, rep 2":1.22,"Wolbachia per cell robust z, rep 3":0.478}
{"Gene":"CG15905","reagent no.":1,"Wolbachia per cell robust z, rep 1":0.0103,"Wolbachia per cell robust z, rep 2":-0.00302,"Wolbachia per cell robust z, rep 3":0.264}
{"Gene":"Cpr49Ah (Cuticular protein 49Ah)","reagent no.":1,"Wolbachia per cell robust z, rep 1":1.95,"Wolbachia per cell robust z, rep 2":-0.658,"Wolbachia per cell robust z, rep 3":1.35}
{"Gene":"Cpr49Ah (Cuticular protein 49Ah)","reagent no.":2,"Wolbachia per cell robust z, rep 1":1.21,"Wolbachia per cell robust z, rep 2":0.522,"Wolbachia per cell robust z, rep 3":0.819}
{"Gene":"TrxT (Thioredoxin T)","reagent no.":1,"Wolbachia per cell robust z, rep 1":0.559,"Wolbachia per cell robust z, rep 2":0.267,"Wolbachia per cell robust z, rep 3":0.774}
{"Gene":"CG15715","reagent no.":1,"Wolbachia per cell robust z, rep 1":-0.299,"Wolbachia per cell robust z, rep 2":-2.08,"Wolbachia per cell robust z, rep 3":-0.415}
{"Gene":"CG15715","reagent no.":2,"Wolbachia per cell robust z, rep 1":"-2.42 (active)","Wolbachia per cell robust z, rep 2":-1.86,"Wolbachia per cell robust z, rep 3":0.742}
{"Gene":"CG32576","reagent no.":1,"Wolbachia per cell robust z, rep 1":0.525,"Wolbachia per cell robust z, rep 2":0.812,"Wolbachia per cell robust z, rep 3":1.08}
{"Gene":"Marc (Mitochondrial amidoxime reducing component)","reagent no.":1,"Wolbachia per cell robust z, rep 1":-0.408,"Wolbachia per cell robust z, rep 2":0.0446,"Wolbachia per cell robust z, rep 3":-0.314}
{"Gene":"CG8675","reagent no.":1,"Wolbachia per cell robust z, rep 1":-0.0775,"Wolbachia per cell robust z, rep 2":1.12,"Wolbachia per cell robust z, rep 3":0.0493}
{"Gene":"CG8675","reagent no.":2,"Wolbachia per cell robust z, rep 1":"-1.43 (active)","Wolbachia per cell robust z, rep 2":-3.52,"Wolbachia per cell robust z, rep 3":-2.64}
